Laboratory results as given in patent publication US10329542B2, “HBV RNAse H purification and enzyme inhibitors” (Saint Louis University, priority 2012, dated 2019).

Tested on: HBV proteins and β-actin in Huh7 cells
Assay: Viral and cellular protein accumulation (HBc and β-actin western, HBs ELISA)
Assay type: cell-based, human

Compound: CC(C)c1ccc(O)c(=O)c(O)c1 [Compound 46, beta-thujaplicinol]
- β-actin levels (day four post-transfection, western): unchanged
- HBs expression and secretion (genotype D isolate, up to 20 μM, ELISA): unaffected
